A mixed list of measured activities; the numbers were collected in NIAID ChemDB.

Common to all: growth or infection tests; species: HIV-1; method: cytopathic effect / MTT; endpoint: EC50

Conditions beyond the fields shown may differ between rows.

CC=CCN1C(C)C(=O)Nc2ccc(Cl)cc2S1(=O)=O ; cells: MT-4 ; value: 0.7 µM
Fc1c(F)c(CN2CCCNCCNCCCNCC2)c(F)c(F)c1CN1CCCNCCNCCCNCC1 ; strain or isolate: AOM ; cells: MT-4 ; value: 0.067 µg/mL
O=c1[nH]cnc2c1ncn2[C@H]1CC[C@@H](CO)O1 ; strain or isolate: Recombinant mutant ; cells: MT-4 ; changes: RT-A98S E138A ; value: 10.6 µM
Cc1cn([C@H]2C=C[C@@H](COC(=O)NCCSC(=O)OC[C@@H]3CC[C@H](n4cnc5c(=O)[nH]cnc54)O3)O2)c(=O)[nH]c1=O ; strain or isolate: NNRTI-resistant (RT Y181C) ; cells: MT-4 ; changes: RT-Y181C ; value: 13 µM
Nc1nc(Nc2cccc3ccccc23)c2ncn(CCOCP(=O)(O)O)c2n1 ; strain or isolate: IIIB ; cells: MT-4 ; value: 90 µg/mL
c1ccc(-c2cc(CN3CCCNCCNCCCNCC3)cc(CN3CCCNCCNCCCNCC3)c2)cc1 ; strain or isolate: RF ; cells: MT-4 ; value: 0.1 µg/mL
C[C@H](C[n+]1c[nH]c2c(NCCCCCCCC3CCCCC3)nc(N)nc21)OCP(=O)(O)O ; strain or isolate: IIIB ; cells: MT-4 ; value: 8 ± 2 µg/mL
Nc1nc(NC2CC2)c2ncn([C@H]3C=C[C@@H](CO)O3)c2n1 ; strain or isolate: IIIB ; cells: MT-2 ; value: 8.3 µM
CC(C)=CCN1Cc2cc(Cl)cc3[nH]c(=S)n(c23)C[C@@H]1C ; strain or isolate: C ; cells: CEM + CEM-SS ; value: 0.222 µM
CC(C)=CCN1Cc2cc(Cl)cc3[nH]c(=S)n(c23)C[C@@H]1C ; strain or isolate: Recombinant mutant ; cells: MT-4 ; changes: RT-E138A ; value: 0.182 µM
CCCc1cc(=O)oc2c3c(c4c(c12)OC(C)(C)C=C4)O[C@@H](C)[C@H](C)[C@H]3O ; strain or isolate: H112-2 ; cells: MT-2 ; value: >2.5 µM
Cc1cn([C@H]2C[C@H](N=[N+]=[N-])[C@@H](CO)O2)c(=O)[nH]c1=O ; strain or isolate: RF ; cells: MT-4 ; changes: RT-M184I ; value: 0.015 µM
CCCc1cc(=O)oc2c3c(c4c(c12)OC(C)(C)C=C4)O[C@H](C)C(C)(C)[C@@H]3O ; strain or isolate: IIIB ; cells: CEM + CEM-SS ; value: >20.3 µM
O=[N+]([O-])c1cc(CN2CCCNCCNCCCNCC2)cc(CN2CCCNCCNCCCNCC2)c1 ; strain or isolate: RF ; cells: MT-4 ; value: 0.07 µg/mL
CCN(CC(=O)O)S(=O)(=O)c1cc(Cl)ccc1N ; cells: MT-4 ; value: >200 µM
Fc1cccc(F)c1C1SCc2nc3ccccc3n21 ; strain or isolate: Nevirapine-resistant (RT V106A) ; cells: CEM ; changes: RT-V106A ; value: 7.63 µM
Nc1ccn([C@H]2CC[C@@H](CO)O2)c(=O)n1 ; strain or isolate: A-17 (TIBO-RS) ; cells: MT-2 ; value: ~0.07 µM
Cc1cn([C@H]2C[C@H](N=[N+]=[N-])[C@@H](COC(=O)CCC(=O)OC[C@H]3O[C@@H]4O[C@H]5[C@H](O)[C@@H](O)[C@@H](O[C@H]6[C@H](O)[C@@H](O)[C@@H](O[C@H]7[C@H](O)[C@@H](O)[C@@H](O[C@H]8[C@H](O)[C@@H](O)[C@@H](O[C@H]9[C@H](O)[C@@H](O)[C@@H](O[C@H]3[C@H](O)[C@H]4O)O[C@@H]9CO)O[C@@H]8CO)O[C@@H]7CO)O[C@@H]6CO)O[C@@H]5CO)O2)c(=O)[nH]c1=O ; strain or isolate: IIIB ; cells: MT-4 ; value: 0.008 µg/mL
O=C(O)P(=O)(O)O ; strain or isolate: LAI viral clone (RT-Q161L) ; cells: MT-2 ; changes: RT-Q161L ; value: 295 µM
C1CNCCNCCCN2CCCNCCNCCCN(C1)CC2 ; strain or isolate: 168.10 ; cells: SupT1 + Sup-T1 ; value: 6 µg/mL
Nc1nc(NC2CC2)c2ncn([C@H]3C=C[C@@H](CO)C3)c2n1 ; cells: MT-2 ; changes: RT-Q151M V75I ; value: >20 µM
CC1C(=O)Nc2ccc(Cl)cc2S(=O)(=O)N1CC1OC1(C)C ; cells: MT-4 ; value: 5 µM
Nc1ccn([C@H]2CC[C@@H](CO)O2)c(=O)n1 ; strain or isolate: IIIB ; cells: MT-4 ; value: 0.03 µg/mL
c1ccc2c(CN3CCCNCCNCCCNCC3)cc(CN3CCCNCCNCCCNCC3)cc2c1 ; strain or isolate: NL4-3 ; cells: MT-4 ; value: 0.2 µg/mL
Cc1cn([C@H]2C=C[C@@H](CO)O2)c(=O)[nH]c1=O ; strain or isolate: LAI ; cells: MT-2 ; value: 13.4 µM
Cc1cc(S(=O)(=O)NC2=NCCCN2)c(S)cc1Cl ; cells: CEM ; value: 19.4 µM
Cc1cn([C@H]2C[C@H](N=[N+]=[N-])[C@@H](COC(=O)NCCSC(=O)OC[C@H]3O[C@@H](n4cc(C)c(=O)[nH]c4=O)C[C@@H]3N=[N+]=[N-])O2)c(=O)[nH]c1=O ; strain or isolate: NNRTI-resistant (RT K103N Y181C) ; cells: MT-4 ; changes: RT-K103N Y181C ; value: 5 µM
C[C@H](CC1CNC2C(N)=NC(N)NC12)OCP(=O)(O)O ; strain or isolate: IIIB ; cells: CEM ; value: 50 ± 14 µg/mL
O=C(O)c1cc(CN2CCCNCCNCCCNCC2)ccc1CN1CCCNCCNCCCNCC1 ; strain or isolate: RF ; cells: MT-4 ; value: >10 µg/mL
CCCCCNc1nc(N)nc2c1[nH]c[n+]2C[C@@H](C)OCP(=O)(O)O ; strain or isolate: IIIB ; cells: CEM ; value: 20 µg/mL
CC(=O)c1ccc(C)cc1NC(C(N)=O)c1c(Cl)cccc1Cl ; strain or isolate: Recombinant wild type ; cells: MT-4 ; value: 0.023 µM
CCNc1nc(N(C)C)nc2c1[nH]c[n+]2C[C@@H](C)OCP(=O)(O)O ; strain or isolate: IIIB ; cells: CEM ; value: 7 µg/mL
COc1ccc2c(c1)N(C(=O)OC(C)C)[C@@H](CSC)C(=S)N2 ; strain or isolate: IIIB ; cells: MT-4 ; changes: RT-E138K ; value: 0.0015 µM
CC(C)=CCN1C(C)Cn2c(=O)n(CC=C(C)C)c3cc(Cl)cc(c32)S1(=O)=O ; cells: MT-4 ; value: >63 µM
Cc1cn([C@H]2C[C@H](N=[N+]=[N-])[C@@H](COC(=O)CCC(=O)O)O2)c(=O)[nH]c1=O ; strain or isolate: IIIB ; cells: MT-4 ; value: 0.015 µg/mL
Nc1nc(=O)n([C@@H]2CS[C@H](CO)O2)cc1F ; strain or isolate: RF ; cells: MT-4 ; value: 2.02 µM
CC(=O)Oc1ccc(/C=C/C(=O)O[C@H](C(=O)O)[C@H](OC(=O)/C=C/c2ccc(OC(C)=O)c(OC(C)=O)c2)C(=O)O)cc1OC(C)=O ; strain or isolate: IIIB ; cells: MT-4 ; value: 3.8 µM
Nc1nc2c(ncn2[C@H]2C=C[C@@H](CO)O2)c(=O)[nH]1 ; strain or isolate: LAI ; cells: PBMC ; value: 0.34 µM
Cc1cn([C@H]2C[C@H](N=[N+]=[N-])[C@@H](CO)O2)c(=O)[nH]c1=O ; cells: MT-2 ; changes: RT-Q151M A62V ; value: >10 µM
C[C@H]1C(=O)Nc2ccc(Cl)cc2S(=O)(=O)N1Cc1c(F)cccc1F ; cells: MT-4 ; value: 0.07 µM
Cc1cn([C@H]2C[C@H](N=[N+]=[N-])[C@@H](CO)O2)c(=O)[nH]c1=O ; strain or isolate: IIIB ; cells: CEM ; value: 0.0045 µM
c1ccc(C2OCc3nc4ccccc4n32)cc1 ; strain or isolate: TSAO-resistant (RT E138K) ; cells: CEM ; changes: RT-E138K ; value: >3.4 µM
Fc1cccc(F)c1[C@@H]1SCc2nc3ccccc3n21 ; strain or isolate: MN ; cells: MT-4 ; value: 0.3 µg/mL
c1cc(CCN2CCCNCCNCCCNCC2)ccc1CCN1CCCNCCNCCCNCC1 ; strain or isolate: NL4-3 ; cells: MT-4 ; changes: AMD3100-resistant ; value: >5 µg/mL
CCCc1cc(=O)oc2c3c(c4c(c12)OC(C)(C)C=C4)O[C@@H](C)C(C)=C3 ; strain or isolate: IIIB ; cells: CEM + CEM-SS ; value: >24.7 µM
Cc1cn([C@H]2C[C@H](N=[N+]=[N-])[C@@H](COC(=O)NCCSC(=O)OC[C@@H]3CC[C@H](n4cnc5c(=O)[nH]cnc54)O3)O2)c(=O)[nH]c1=O ; strain or isolate: EFV-resistant (RT K103R V179D P225H) ; cells: MT-4 ; changes: RT-K103R V179D P225H ; value: 0.2 µM
CN=C1CN=C(c2ccc[nH]2)c2cc(Cl)ccc2N1 ; strain or isolate: IIIB ; cells: MT-4 ; value: >46 µM
C=CCN1Cc2cccc3[nH]c(=O)n(c23)C[C@@H]1C ; strain or isolate: IIIB ; cells: MT-4 ; value: 70 µM
CNC(C)[C@H]1O[C@H](O[C@@H]2[C@@H](O)[C@H](O[C@@H]3OC[C@@](C)(O)[C@@H](NC)[C@@H]3O)[C@@H](NC(=O)[C@@H](N)CCCN=C(N)N)C[C@H]2NC(=O)[C@@H](N)CCCN=C(N)N)[C@H](NC(=O)[C@@H](N)CCCN=C(N)N)[C@@H](O)[C@@H]1O ; strain or isolate: RF ; cells: MT-4 ; value: 35 µM
Cc1cc(C)cc(CN2C(C)C(=O)Nc3ccc(Cl)cc3S2(=O)=O)c1 ; cells: MT-4 ; value: 0.12 µM
NC(N)=NCCC[C@H](N)C(=O)NC[C@H]1O[C@H](O[C@H]2C(O)[C@@H](O[C@H]3O[C@H](CO)[C@@H](O)[C@H](NC(=O)[C@@H](N)CCCN=C(N)N)[C@H]3O)[C@H](NC(=O)[C@@H](N)CCCN=C(N)N)C[C@@H]2NC(=O)[C@@H](N)CCCN=C(N)N)[C@H](O)[C@@H](O)[C@@H]1O ; strain or isolate: RF ; cells: MT-4 ; value: >113 µM
Nc1ccn([C@H]2CC[C@@H](CO)O2)c(=O)n1 ; strain or isolate: RF ; cells: MT-4 ; value: 0.147 µM

A second listing of 3 rows from above:

smiles | strain or isolate | cells | changes | value
Fc1cccc(F)c1[C@@H]1SCc2nc3ccccc3n21 | MN | MT-4 |  | 0.3 µg/mL
C[C@H](CC1CNC2C(N)=NC(N)NC12)OCP(=O)(O)O | IIIB | CEM |  | 50 ± 14 µg/mL
Cc1cn([C@H]2C=C[C@@H](CO)O2)c(=O)[nH]c1=O | LAI | MT-2 |  | 13.4 µM

Blank or dashed fields: not listed here. ECn: concentration that inhibits the pathogen or its effect by n%.